Bridge positions count the residues as written; N and C are the ends. Square brackets hold non-standard residues; d marks the D form. Peptide text beside a SMILES is read from it. * marks the point of attachment. Myristoyl = CCCCCCCCCCCCCC(=O)*; Orn = NCCC[C@H](N)C(=O)O; Dab = NCC[C@H](N)C(=O)O; Dap = NC[C@H](N)C(=O)O
Experiment: Isothermal titration calorimetry
Assay type: binding
Settings: Table S12; ITC, 20 mM HEPES pH 7.5
Protocol: Calorimetric experiments were performed to evaluate the interaction between CL, PE, PG, or LPS and aquicidine L or aquicidine C4. To determine the affinity between aquicidine L or aquicidine C4 and CL, PE, or PG, both 2 mM CL, PE, or PG and 0.2 mM aquicidine L or aquicidine C4 were dissolved in 20 mM HEPES buffer (pH 7.5). To determine the interaction between LPS and aquicidine L or aquicidine C4, 2 mM LPS and 0.2 mM aquicidine L or aquicidine C4 were dissolved in H2O. Sequential injections of CL, PE, PG, or LPS into the calorimetric cell filled with aquicidine L or aquicidine C4 were repeated 20 times with equilibration intervals of 200 s. Data were collected by using a MicroCal PEAQ‐ITC instrument and calculated for the equilibrium dissociation constant (KD), change of enthalpy (ΔH), and change of entropy […].

Compound	ΔG (kcal/mol), CL	ΔG (kcal/mol), PE	ΔG (kcal/mol), PG	ΔH (kcal/mol), CL	ΔH (kcal/mol), PE	ΔH (kcal/mol), PG	ΔS (kcal/mol/K), CL	ΔS (kcal/mol/K), PE	ΔS (kcal/mol/K), PG
CCCCCCCCCCCCCC(=O)N[C@@H](CN)C(=O)N[C@H](C(=O)N[C@@H](CC(C)C)C(=O)N[C@H]1COC(=O)[C@H](Cc2ccccc2)NC(=O)[C@H](CC(N)=O)NC(=O)[C@H](CCCN)NC(=O)[C@H]([C@@H](C)CC)NC(=O)[C@H](Cc2ccccc2)NC(=O)[C@H](CN)NC(=O)[C@H](CCN)NC1=O)[C@@H](C)O [synAQU5-C4] (Myristoyl-[Dap]TLS[Dab][Dap]FI[Orn]NF; ester 4-C)	-12.66 kcal/mol	-5.24 kcal/mol	-11.25 kcal/mol	-0.73 kcal/mol	-27.30 kcal/mol	-0.81 kcal/mol	0.040 kcal/mol/K	-0.074 kcal/mol/K	0.035 kcal/mol/K
CCCCCCCCCCCCCC(=O)N[C@@H](CN)C(=O)N[C@H](C(=O)N[C@@H](CC(C)C)C(=O)N[C@@H](CO)C(=O)N[C@@H](CCN)C(=O)N[C@@H](CN)C(=O)N[C@@H](Cc1ccccc1)C(=O)N[C@H](C(=O)N[C@@H](CCCN)C(=O)N[C@@H](CC(N)=O)C(=O)N[C@@H](Cc1ccccc1)C(=O)O)[C@@H](C)CC)[C@@H](C)O [synAQU5-L] (Myristoyl-[Dap]TLS[Dab][Dap]FI[Orn]NF-OH)	-9.38 kcal/mol	-6.09 kcal/mol	-9.01 kcal/mol	-1.03 kcal/mol	-4.90 kcal/mol	-0.96 kcal/mol	0.028 kcal/mol/K	0.004 kcal/mol/K	0.027 kcal/mol/K
